These results are taken from US11135228B2, “Cysteinyl-proresolving mediators that promote resolution of infection and organ protection” (THE BRIGHAM AND WOMEN'S HOSPITAL, priority 2014, dated 2021).

The nature of series [1]: LC-MS-MS MRM quantification of sulfido-conjugate levels in human tissues. Particulars: endogenous level.
The nature of series [2]: LC-MS-MS MRM quantification of sulfido-conjugate levels in mouse tissues. As to conditions: endogenous level.
[3] abbreviates: mean ± SEM, n 6 mice, lavage volume 5 ml.

“13-cysteinyl, 14-hydroxy-docosahexaenoic acid [MCTR3]” yielded a Human autopsy spleen in series [1] (mean ± SEM, n 3 patients) of 33.1 ± 6.2 pg/100 mg. This compound also came in with a Human sepsis plasma in series [1] (mean ± SEM, n 10 patients) of 8.7 ± 2.5 pg/mL.
In series [1] (mean ± SEM, n 3 patients), “13-glutathionyl, 14-hydroxy-docosahexaenoic acid [SCI]” displayed a Human autopsy spleen of 13.6 ± 5.7 pg/100 mg. Moreover, the Human sepsis plasma in series [1] (mean ± SEM, n 10 patients) amounted to 3.1 ± 0.9 pg/mL.
Consider `CCCCC/C=C\C\C=C/C=C/C=C/[C@@H](SC[C@H](NC(=O)CC[C@H](N)C(=O)O)C(=O)NCC(=O)O)[C@@H](O)CCCC(=O)O` [LTC4], for which the Human sepsis plasma entry in series [1] is on record as “^a (Below limits, ~1 pg)”. Further, the Human autopsy spleen in series [1] (mean ± SEM, n 3 patients) is reported as 240.7 ± 73.5 pg/100 mg. The “24 h Resolving mouse exudates” value in series [2] (setting [3]) is 8.3 ± 2.2 pg/lavage.
For the compound `CCCCC/C=C\C\C=C/C=C/C=C/[C@@H](SC[C@H](N)C(=O)NCC(=O)O)[C@@H](O)CCCC(=O)O` [LTD4], the Human sepsis plasma entry in series [1] was “^a (Below limits, ~1 pg)”. Moreover, the Human autopsy spleen in series [1] (mean ± SEM, n 3 patients) is given as 49.3 ± 26.7 pg/100 mg. Further, the “24 h Resolving mouse exudates” value in series [2] (setting [3]) stood at 4.9 ± 1.3 pg/lavage.
Turning to `CCCCC/C=C\C\C=C/C=C/C=C/[C@@H](SC[C@H](N)C(=O)O)[C@@H](O)CCCC(=O)O` [LTE4], the Human autopsy spleen result in series [1] is reported as “^a (Below limits, ~1 pg)”. This compound also yielded a Human sepsis plasma in series [1] (mean ± SEM, n 10 patients) of 12.9 ± 2.9 pg/mL. Also, in series [2], the “24 h Resolving mouse exudates” value is reported as “^a (Below limits, ~1 pg)”.
Take `CC/C=C\CC(O)C(/C=C/C=C/C=C\C/C=C\C/C=C\CCC(=O)O)SCC(NC(=O)CCC(N)C(=O)O)C(=O)NCC(=O)O` (stereo not shown) [PCTR1, 16-glutathionyl, 17-hydroxy-4Z,7Z,10,12,14,19Z-docosahexaenoic acid]: in series [1], the Human sepsis plasma result is given as “^a (Below limits, ~1 pg)”. This compound displayed a Human autopsy spleen in series [1] (mean ± SEM, n 3 patients) of 83.1 ± 24.5 pg/100 mg. Besides, the “24 h Resolving mouse exudates” value in series [2] (setting [3]) is 3.9 ± 2.6 pg/lavage.
In the case of `CC/C=C\C[C@H](O)[C@@H](/C=C/C=C/C=C\C/C=C\C/C=C\CCC(=O)O)SC[C@H](N)C(=O)NCC(=O)O` [PCTR2, 16-cysteinylglycinyl, 17-hydroxy-4Z,7Z,10,12,14,19Z-docosahexaenoic acid], in series [1], the Human autopsy spleen result is “^a (Below limits, ~1 pg)” and the Human sepsis plasma result is reported as “^a (Below limits, ~1 pg)”. Also, the “24 h Resolving mouse exudates” value in series [2] (setting [3]) came to 3.4 ± 2.8 pg/lavage.
Turning to `CC/C=C\C[C@H](O)[C@@H](/C=C/C=C/C=C\C/C=C\C/C=C\CCC(=O)O)SC[C@H](N)C(=O)O` [PCTR3, 16-cysteinyl, 17-hydroxy-4Z,7Z,10,12,14,19Z-docosahexaenoic acid], in series [1] (mean ± SEM, n 3 patients), the Human autopsy spleen was 124.5 ± 51.7 pg/100 mg. This compound had a Human sepsis plasma in series [1] (mean ± SEM, n 10 patients) of 1.5 ± 0.8 pg/mL. The “24 h Resolving mouse exudates” value in series [2] is reported as “^a (Below limits, ~1 pg)”.
Take `CC/C=C\C[C@H](O)/C=C/C=C\C=C\C=C\[C@@H](SC[C@H](NC(=O)CC[C@H](N)C(=O)O)C(=O)NCC(=O)O)[C@@H](O)C/C=C\CCC(=O)O` [RCTR1, 8-glutathionyl, 7,17-hydroxy-4Z,9,11,13Z,15E,19Z-docosahexaenoic acid]: the Human sepsis plasma entry in series [1] is on record as “^a (Below limits, ~1 pg)”. The Human autopsy spleen in series [1] (mean ± SEM, n 3 patients) turned out to be 36.0 ± 11.2 pg/100 mg. In addition, the “24 h Resolving mouse exudates” value in series [2] (setting [3]) worked out at 5.8 ± 2.7 pg/lavage.
For `CC/C=C\C[C@H](O)/C=C/C=C\C=C\C=C\[C@@H](SC[C@H](N)C(=O)NCC(=O)O)[C@@H](O)C/C=C\CCC(=O)O` [RCTR2, 8-cysteinylglycinyl, 7,17-hydroxy-4Z,9,11,13Z,15E,19Z-docosahexaenoic acid], in series [1], the Human autopsy spleen result is on record as “^a (Below limits, ~1 pg)” and the Human sepsis plasma entry is “^a (Below limits, ~1 pg)”. For the same compound, the “24 h Resolving mouse exudates” value in series [2] is listed as “^a (Below limits, ~1 pg)”.
Turning to `CC/C=C\CC(O)/C=C/C=C\C=C\C=C\C(SCC(N)C(=O)O)C(O)C/C=C\CCC(=O)O` (stereo not shown) [RCTR3, 8-cysteinyl, 7,17-hydroxy-4Z,9,11,13Z,15E,19Z-docosahexaenoic acid], in series [1], the Human autopsy spleen entry is “^a (Below limits, ~1 pg)” and the Human sepsis plasma result is on record as “^a (Below limits, ~1 pg)”. In series [2], the “24 h Resolving mouse exudates” value is given as “^a (Below limits, ~1 pg)”.
Regarding `CCC=CCC=CCC(O)C(C=CC=CC=CCC=CCCC(=O)O)SCC(N)C(=O)NCC(=O)O` (stereo not shown) [SCII, 13-cysteinylglycinyl, 14-hydroxy-docosahexaenoic acid], the Human sepsis plasma entry in series [1] is “^a (Below limits, ~1 pg)”. The Human autopsy spleen in series [1] (mean ± SEM, n 3 patients) came to 22.9 ± 6.3 pg/100 mg. Moreover, the “24 h Resolving mouse exudates” value in series [2] (setting [3]) is listed as 2.4 ± 1.1 pg/lavage.
